Patent US20250382354A1 (INSTITUTE FOR RESEARCH IN BIOMEDICINE IRB, published 2025)

Key:
[1] = target: C-terminally truncated SARS-CoV-2 S protein, Omicron BA.1 (SARS-CoV-2 Omicron BA.1); assay: cell-based or functional assay
[2] = target: C-terminally truncated SARS-CoV-2 S protein, Omicron BA.2.75.2 (SARS-CoV-2 Omicron BA.2.75.2); assay: cell-based or functional assay
[3] = target: C-terminally truncated SARS-CoV-2 S protein, Gamma (SARS-CoV-2 Gamma); assay: cell-based or functional assay
[4] = target: C-terminally truncated SARS-CoV-2 S protein, Delta (SARS-CoV-2 Delta); assay: cell-based or functional assay
[5] = target: C-terminally truncated SARS-CoV-2 S protein, Alpha (SARS-CoV-2 Alpha); assay: cell-based or functional assay
[6] = target: C-terminally truncated SARS-CoV-2 S protein, Omicron BA.2.75 (SARS-CoV-2 Omicron BA.2.75); assay: cell-based or functional assay
[7] = target: C-terminally truncated SARS-CoV-2 S protein, Beta (SARS-CoV-2 Beta); assay: cell-based or functional assay
CRCoV-240/05 FP peptide [8] = target: T1, CRCoV-240/05 FP peptide (CRCoV-240/05); assay: peptide ELISA
T1 construct: domain: FP peptide

MERS S ectodomain [9] = target: MERS S ectodomain (MERS); assay: ELISA on coated S
[10] = target: SARS-CoV-2 S of the Omicron BA.1 pseudovirus (SARS-CoV-2 Omicron BA.1); assay: cell-based or functional assay
[11] = target: SARS-CoV-2 S of the Omicron BA.2.75.2 pseudovirus (SARS-CoV-2 Omicron BA.2.75.2); assay: cell-based or functional assay
[12] = target: SARS-CoV-2 S of the Delta pseudovirus (SARS-CoV-2 Delta); assay: cell-based or functional assay
[13] = target: SARS-CoV-2 S of the Omicron BA.2.75 pseudovirus (SARS-CoV-2 Omicron BA.2.75); assay: cell-based or functional assay
[14] = target: SARS-CoV-2 S of the Alpha pseudovirus (SARS-CoV-2 Alpha); assay: cell-based or functional assay
[15] = target: SARS-CoV-2 S of the Omicron BA.2 pseudovirus (SARS-CoV-2 Omicron BA.2); assay: cell-based or functional assay
[16] = target: SARS-CoV-2 S of the Beta pseudovirus (SARS-CoV-2 Beta); assay: cell-based or functional assay
[17] = target: SARS-CoV-2 S of the Gamma pseudovirus (SARS-CoV-2 Gamma); assay: cell-based or functional assay
[18] = target: SARS-CoV-2 S of the Omicron BA.4/BA.5 pseudovirus (SARS-CoV-2 Omicron BA.4/BA.5); assay: cell-based or functional assay
[19] = target: C-terminally truncated SARS-CoV-2 S protein, Omicron BA.2 (SARS-CoV-2 Omicron BA.2); assay: cell-based or functional assay
CRCoV-240/05 HR2 peptide = target: T2, CRCoV-240/05 HR2 peptide (CRCoV-240/05); assay: peptide ELISA
T2 construct: domain: HR2 peptide

MERS S ectodomain [20] = target: MERS S ectodomain (MERS)
CRCoV-240/05 FP peptide [21] = target: T1, CRCoV-240/05 FP peptide

Binder | Omicron BA.1 Pseudovirus IC50 [1] [µg/mL] | Omicron BA.2.75.2 Pseudovirus IC50 [2] [µg/mL] | Gamma Pseudovirus IC50 [3] [µg/mL] | Delta Pseudovirus IC50 [4] [µg/mL] | Alpha Pseudovirus IC50 [5] [µg/mL] | Omicron BA.2.75 Pseudovirus IC50 [6] [µg/mL] | Beta Pseudovirus IC50 [7] [µg/mL] | EC50 (MERS S ectodomain [9]) [µg/mL] | Omicron BA.2 Pseudovirus IC50 [19] [µg/mL] | further results
fp.006 (antibody, V domains shown) VH: VQLVESGGGVVQPGGSLRLSCAASGFNFNNYALHWVRQAPGKGLEWVAIISYEARNKKYGVSVMGRFSISRDNSKSIMYLEMNSLRVEDTGVYYCARDLFLSDYDRSGYDPTRGGFDHWGQGTLVTVSS VL: EIVMTQSPATLSVSPGERATLSCRASQSVSSSLAWYQHRFGQAPRLLISGASTRATGIPGRFSGSGSGTEFTLTISSLQSEDVAVYYCQQYGDWPLVTFGGGTKVEIK | 19.1 | 30.3 | 0.408 | 42 | 15.6 | 80.8 | 29.6 | 0.0412 | – | EC50 (CRCoV-240/05 FP peptide [8]): 0.0149 µg/mL
sd1.040 (antibody, V domains shown) VH: QVQLVQSGAEVKKPGASVKVSCKASGYTFTSFYIHWVRQAPGQGLEWMGIIDPSGGSTSYPQKFQGRVTMTRDTSTSTVYMDLSSLRSEDTAVYYCTRDGSAGDNSWFDPWGQGTLVTVSS VL: DIVMTQSPDSLAVSLGERATINCKSSRNVLYSSNNKNYLAWYQQKPGQPPKLLIYWASARESGVPDRFSGSGSGTDFTLTISSLQAEDVAVYYCQQYYNTPYTFGQGTKLEIK | – | – | – | – | – | – | – | – | – | Omicron BA.1 Pseudovirus IC50 [10]: 1 µg/mL; Omicron BA.2.75.2 Pseudovirus IC50 [11]: 4.49 µg/mL; Delta Pseudovirus IC50 [12]: 3.72 µg/mL; Omicron BA.2.75 Pseudovirus IC50 [13]: 4.02 µg/mL; Alpha Pseudovirus IC50 [14]: 5.84 µg/mL; Omicron BA.2 Pseudovirus IC50 [15]: 1.44 µg/mL; Beta Pseudovirus IC50 [16]: 2.35 µg/mL; Gamma Pseudovirus IC50 [17]: 0.0664 µg/mL; Omicron BA.4/BA.5 Pseudovirus IC50 [18]: 1.36 µg/mL
fp.007 (antibody, V domains shown) VH: EVQLVESGGGLVKPGGSLRLSCAGTGFIFSDAWMTWVRQAPGKGLEWVGRIKSKADGGTTDYAAPVKGRFTISRDDSKNTLYLEINSLKTEDTAVYYCTTGRSRYCIGAVCYYFDHWGQGTLVTVSS VL: not shown | 9.23 | 14.5 | 0.801 | 3.23 | 5.85 | 12.7 | 42.9 | – | 1.89 | –
hr2.016 (antibody, V domains shown) VH: EVQLLESGGGLVQPGGSLRLSCAASGFMFSKYAMTWVRQTPGKGLEWVSVISGGGGSTYYADSVKGRFTISRDNSKNTLYLQMNSLRAEDTAVYYCAKLLVVFVIDYWGQGALVTVSS VL: EIVLTQSPGTLSLSPGERATLFCRASQSVSSNLAWYQQKPGRAPRLLISGASSRATGIPDRFSGSGSGTDFTLTISRLEPEDFAVYYCQQYGSSPPTFGQGTKVEIK | 0.454 | 0.867 | 0.000599 | 0.384 | 0.307 | 1.08 | 0.484 | 0.0694 | 0.559 | EC50 (CRCoV-240/05 HR2 peptide): 0.00513 µg/mL
hr2.023 (antibody, V domains shown) VH: QVQLVQSGAEVKKPGASVKVSCRASENIFSDSYLHWVRQAPGQGLEWMGIITPSGDKTFYAQQFQGRLTMTRDTPTNTLHMDLRGLTSADTAIYYCARQATKGGWDYWGQGTLVTVSS VL: EIVLTQSPGTLSLSPGESATLSCRASQSVTRNYLAWYQQQPGQAPRLLIYGASNRATGVPDRFSGSGSGTDFTLTISRLEPEDFAVYYCQQYGSSPPTFIFGPGTKVDIK | 2.03 | 4.24 | 0.0209 | 1.69 | 4.71 | 7.06 | 5.57 | 0.0516 | 3.6 | EC50 (CRCoV-240/05 HR2 peptide): 0.0165 µg/mL
fp.009 (antibody, V domains shown) VH: VQLVESGGGVVQPGTSLTLSCEASGFTFSNYAMHWVRQAPGKGLEWVAIISFDTRNKKFAGSVQGRFSISRDNAKNSIYLQMNNLRPEDTGIYYCARDVFLSDYDSRGFDRTRGGFDYWGQGTLVTVSS VL: EIVMTQSPATLSVSPGEKATLSCRASESVGSSLAWYQQKLGQAPRLLIYGASTRATGIPARFSGSGSGAEFTLTISSLQSEDFAIYYCQQYGDWPLLTFGGGTKVEIK | – | – | – | – | – | – | – | – | – | EC50 (MERS S ectodomain [20]): 0.0515 µg/mL; EC50 (CRCoV-240/05 FP peptide [21]): 0.026 µg/mL
fp.010 (antibody, V domains shown) VH: EVQLLESGGGLVQPGGSLRLSCAASGFTFSTYAMNWVRQAPGKGLEWVSAISSSGLSTQYADSVRGRFTISRDTSKNTLYLHMNSLRAGDTAVYYCAKVEYSGYDPRGPFDSWGQGTLVTVSS VL: DIQMTQSPSTLSASVGDRVTITCRASQSISGWLAWYQQKPGRAPKLLIYKASSLERGVPSRFSGSGSGTEFTLTISSLQPDDFATYYCQEYSSYPLCTFGQGTKLEIK | – | – | – | – | – | – | – | 1.96 | – | EC50 (CRCoV-240/05 FP peptide [8]): 0.0406 µg/mL
fp.011 (antibody, V domains shown) VH: EVQLLESGGGLVQPGGSLRLSCAGSGFTFNNYAMTWVRQAPGRGLEWVSAISGSGGSSHYADSVKGRFTITRDNSKNTLYLQMNSLRAEDTAVYYCAFIDYYSGWSYYYGLDVWGQGTTVTVSS VL: EIVLTQSPATLSLSPGERATLSCRASQGVRTYVAWYQQKPGQAPRLLIYDASNRATGIPARFSGSGSGTDFTLTISSLEPEDFAVYYCQQRYNWPLCSFGQGTKLEIK | – | – | – | – | – | – | – | – | – | EC50 (MERS S ectodomain [20]): 0.133 µg/mL; EC50 (CRCoV-240/05 FP peptide [21]): 0.0214 µg/mL

Read-outs that look alike come from different tables or passages of the source.
